This is an account of results in PubChem BioAssay AID588689 (Southern Research Specialized Biocontainment Screening …, 2011).

Chains of the proteins cited; added tags and fusions are not shown.
UniProt P29991, whole entry: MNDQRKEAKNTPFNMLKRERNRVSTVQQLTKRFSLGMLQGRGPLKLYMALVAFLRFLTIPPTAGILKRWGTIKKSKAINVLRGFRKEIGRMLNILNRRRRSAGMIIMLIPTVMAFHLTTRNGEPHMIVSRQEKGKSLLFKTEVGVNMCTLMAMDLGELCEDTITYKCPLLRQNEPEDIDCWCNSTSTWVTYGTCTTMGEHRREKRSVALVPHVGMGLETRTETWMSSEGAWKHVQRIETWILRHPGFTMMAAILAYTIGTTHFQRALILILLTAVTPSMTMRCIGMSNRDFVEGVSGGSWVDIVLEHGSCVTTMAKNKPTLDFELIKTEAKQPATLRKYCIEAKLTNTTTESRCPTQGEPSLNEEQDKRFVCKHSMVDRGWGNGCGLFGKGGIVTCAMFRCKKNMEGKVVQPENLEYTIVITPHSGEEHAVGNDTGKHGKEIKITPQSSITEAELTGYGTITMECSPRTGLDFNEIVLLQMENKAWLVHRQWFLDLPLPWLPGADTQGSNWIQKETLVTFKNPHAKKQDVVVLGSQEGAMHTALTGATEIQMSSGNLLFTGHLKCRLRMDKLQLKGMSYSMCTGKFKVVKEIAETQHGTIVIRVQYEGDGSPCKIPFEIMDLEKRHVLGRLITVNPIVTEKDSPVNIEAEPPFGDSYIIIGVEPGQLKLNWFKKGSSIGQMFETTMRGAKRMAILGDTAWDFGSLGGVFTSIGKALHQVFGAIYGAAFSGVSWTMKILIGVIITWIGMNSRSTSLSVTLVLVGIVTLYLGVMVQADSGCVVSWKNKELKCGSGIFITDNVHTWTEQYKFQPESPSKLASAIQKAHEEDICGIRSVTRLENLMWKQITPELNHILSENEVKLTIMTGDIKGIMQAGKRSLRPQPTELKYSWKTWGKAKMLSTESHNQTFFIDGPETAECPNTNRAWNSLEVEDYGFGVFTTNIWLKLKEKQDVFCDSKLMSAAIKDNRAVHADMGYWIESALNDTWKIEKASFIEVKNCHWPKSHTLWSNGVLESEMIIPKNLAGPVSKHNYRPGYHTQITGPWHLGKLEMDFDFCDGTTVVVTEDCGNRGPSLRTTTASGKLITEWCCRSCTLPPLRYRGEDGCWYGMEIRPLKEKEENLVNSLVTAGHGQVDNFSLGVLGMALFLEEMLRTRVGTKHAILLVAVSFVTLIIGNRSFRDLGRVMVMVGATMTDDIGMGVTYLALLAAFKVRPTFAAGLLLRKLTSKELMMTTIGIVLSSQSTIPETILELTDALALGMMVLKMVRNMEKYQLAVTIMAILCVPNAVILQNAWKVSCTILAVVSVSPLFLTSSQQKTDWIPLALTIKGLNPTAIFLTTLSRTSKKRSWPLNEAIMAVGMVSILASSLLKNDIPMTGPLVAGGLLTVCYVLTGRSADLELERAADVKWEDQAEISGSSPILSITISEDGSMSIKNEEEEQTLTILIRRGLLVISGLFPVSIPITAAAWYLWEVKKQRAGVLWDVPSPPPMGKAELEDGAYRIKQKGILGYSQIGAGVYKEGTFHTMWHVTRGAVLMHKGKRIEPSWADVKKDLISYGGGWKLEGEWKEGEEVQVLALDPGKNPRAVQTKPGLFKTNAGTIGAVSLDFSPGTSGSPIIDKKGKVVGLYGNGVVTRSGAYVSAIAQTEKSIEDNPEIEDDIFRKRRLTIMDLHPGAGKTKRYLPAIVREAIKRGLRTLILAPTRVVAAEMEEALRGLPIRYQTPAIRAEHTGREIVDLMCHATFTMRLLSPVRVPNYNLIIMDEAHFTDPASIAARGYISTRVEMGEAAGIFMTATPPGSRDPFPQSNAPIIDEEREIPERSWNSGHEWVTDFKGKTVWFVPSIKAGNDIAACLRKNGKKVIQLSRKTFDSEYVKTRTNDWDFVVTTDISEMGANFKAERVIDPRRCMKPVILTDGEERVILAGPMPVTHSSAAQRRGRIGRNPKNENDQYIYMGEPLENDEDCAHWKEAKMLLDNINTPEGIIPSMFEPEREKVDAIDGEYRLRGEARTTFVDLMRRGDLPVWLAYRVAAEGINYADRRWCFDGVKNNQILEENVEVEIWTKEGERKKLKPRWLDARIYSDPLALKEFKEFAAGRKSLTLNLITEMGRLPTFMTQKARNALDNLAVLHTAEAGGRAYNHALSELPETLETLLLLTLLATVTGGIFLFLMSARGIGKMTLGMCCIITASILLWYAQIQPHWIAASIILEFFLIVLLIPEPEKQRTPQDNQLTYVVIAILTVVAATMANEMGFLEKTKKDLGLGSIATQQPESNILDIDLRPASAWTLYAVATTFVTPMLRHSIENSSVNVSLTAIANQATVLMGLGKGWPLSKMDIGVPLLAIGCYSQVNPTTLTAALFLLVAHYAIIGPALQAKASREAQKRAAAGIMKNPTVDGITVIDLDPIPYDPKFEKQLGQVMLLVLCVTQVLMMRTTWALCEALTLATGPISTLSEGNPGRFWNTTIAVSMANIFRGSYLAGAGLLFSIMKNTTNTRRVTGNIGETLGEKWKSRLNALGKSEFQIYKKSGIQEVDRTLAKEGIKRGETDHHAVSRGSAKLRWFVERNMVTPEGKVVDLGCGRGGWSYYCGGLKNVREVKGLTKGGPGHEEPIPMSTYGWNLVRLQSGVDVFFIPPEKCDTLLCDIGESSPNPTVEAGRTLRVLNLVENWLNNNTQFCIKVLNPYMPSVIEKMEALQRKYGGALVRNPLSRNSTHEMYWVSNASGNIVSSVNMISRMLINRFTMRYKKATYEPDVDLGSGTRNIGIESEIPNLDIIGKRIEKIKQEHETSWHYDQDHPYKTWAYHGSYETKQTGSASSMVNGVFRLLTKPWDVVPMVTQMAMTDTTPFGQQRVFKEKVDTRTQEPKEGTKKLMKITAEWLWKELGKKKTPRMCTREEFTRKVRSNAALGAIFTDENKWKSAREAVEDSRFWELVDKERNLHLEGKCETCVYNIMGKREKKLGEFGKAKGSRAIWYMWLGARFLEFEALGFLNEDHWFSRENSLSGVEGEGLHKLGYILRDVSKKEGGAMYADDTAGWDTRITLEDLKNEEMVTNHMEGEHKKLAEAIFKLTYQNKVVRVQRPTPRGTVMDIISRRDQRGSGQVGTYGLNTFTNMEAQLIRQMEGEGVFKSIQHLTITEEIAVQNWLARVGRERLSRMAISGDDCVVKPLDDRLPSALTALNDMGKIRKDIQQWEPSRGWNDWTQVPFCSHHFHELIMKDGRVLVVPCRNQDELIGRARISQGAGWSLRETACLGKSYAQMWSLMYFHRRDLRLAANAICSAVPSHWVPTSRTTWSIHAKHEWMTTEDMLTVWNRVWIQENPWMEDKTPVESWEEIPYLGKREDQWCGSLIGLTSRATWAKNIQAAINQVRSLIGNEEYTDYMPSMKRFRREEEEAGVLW

Some of the results follow. Measured potencies and affinities stand elsewhere. Activity calls are given as the source filed them. Cut-off read from the data, not from the text of the source: inconclusive = inhibition above about 29% without an active follow-up result; inactive = below that.

The term inhibition denotes the change of the read-out against control, counted positive when it falls.

This assay has as its target Genome polyprotein (Dengue virus type 2 (strain 16681-PDK53)) (UniProt P29991). The experiment in a line: Dengue-2 NS5 methyltransferase inhibitors, primary screen, biochemical, confirmation dose response (AID 588689). As to conditions: Dengue-2 NS5 methyltransferase capping enzyme assay, at 25 µM, active compounds read high.
As for `CCOC(=O)N1CCC(Nc2cccc(C)c2)CC1`, the inhibition was inactive: 2.33%.
On to `COc1cc(C(=O)NCC2(N(C)C)CCCCC2)ccc1OC(F)F`, for which the inhibition is inactive: -9.45%.
Then `CCOc1ccc(C)cc1CN(CCCl)CCCl`, with inactive: -4.62%.
As to `O=C1CCN(Cc2ccccc2)CC1`, the inhibition was inactive: -5.07%.
With `O=P1(N(CCCl)CCCl)SCCCS1`, the inhibition is inactive: 4.03%.
For `CCCCOc1ccc(C(=O)NCC2(N3CCOCC3)CCCCC2)cc1` the value was inactive: -0.72%; for `O=C(NCC1(N2CCCCC2)CCCCC1)c1ccc(F)cc1`, inactive: -2.2%.
As to `COc1ccc(NC2CCN(CCc3ccccc3)CC2)c(OC)c1`, the inhibition is inactive: 5.67%.
For `CCOC(=O)N1CCC(Nc2ccc(F)cc2)CC1` the value was inactive: 1.96%; for `O=C(NCC1(N2CCOCC2)CCCCC1)c1cc2ccccc2o1`, inactive: -1.61%; for `O=C(NCC1(N2CCCCC2)CCCCC1)c1ccc(Cl)nc1`, inactive: -6.49%.
For `Cc1cc(C)cc(N(C(=O)c2ccccc2)C2CCN(C(=O)OC(C)(C)C)CC2)c1` the value was inactive: -3.92%.
On to `CCOC(=O)N1CCC(Nc2ccc(OC)cc2)CC1`, for which the inhibition is inactive: -7.96%.
Take `N#CC1(Nc2ccccc2)CCN(Cc2ccccc2)CC1`: the inhibition was inactive: -4.59%.
For the compound `O=C(NCC1(N2CCCCC2)CCCCC1)c1ccc(Cl)s1`, the inhibition was inactive: -6.61%.
Take `O=C(OC1CN2CCC1CC2)C1c2ccccc2Oc2ccccc21` (centres undefined): the inhibition is inactive: 14.5%.
On to `COc1ccc(Cl)cc1C(=O)NCC1(N2CCOCC2)CCCCC1`, for which the inhibition is inactive: 1.86%.
For `O=C(NCC1(N2CCCCC2)CCCCC1)c1ccc(=O)[nH]c1`, the inhibition is inactive: -4.51%.
For `O=C(NCC1(N2CCCCC2)CCCCC1)c1cccs1` the value was inactive: -12.3%; for `COc1ccc(C(=O)NCC2(N3CCCCC3)CCCCC2)cc1`, inactive: -5.54%; for `COc1ccc(C(=O)NCC2(N3CCCCC3)CCCCC2)c(OC)c1OC`, inactive: -11.1%.
As to `CC(C)(C)OC(=O)N1CCC(N(C(=O)c2ccccc2)c2ccc(F)cc2)CC1`, the inhibition is inactive: 2.04%.
Take `CSc1ccccc1C(=O)NCC1(N2CCCCC2)CCCCC1`: the inhibition was inactive: 1.62%.
Consider `Cc1cccc(NC2(C#N)CCN(Cc3ccccc3)CC2)c1`, for which the inhibition is inactive: 4.78%.
On to `CN1CCC(Nc2cccc(F)c2)CC1`, for which the inhibition was inactive: -10.5%.
As to `O=C(NCC1(N2CCCCC2)CCCCC1)c1cncc(Br)c1`, the inhibition was inactive: 2.18%.
Regarding `Cc1ccc(C(=O)NCC2(N(C)C)CCCCC2)o1`, the inhibition was inactive: -4.39%.
Consider `CCCOc1ccc(C(=O)NCC2(N(C)C)CCCCC2)cc1OC`, for which the inhibition is inactive: -8.6%.
In the case of `COc1ccc(CN(CCCl)CCCl)cc1Cl`, the inhibition was inactive: -4.37%.
Regarding `CN(C)c1cccc(C(=O)NCC2(N3CCCCC3)CCCCC2)c1`, the inhibition was inactive: -9.15%.
For the compound `CC(C)c1ccc(NC2CCN(C(=O)OC(C)(C)C)CC2)cc1`, the inhibition is inactive: -1.46%.
Consider `COc1cc(OC)c(C(=O)NCC2(N(C)C)CCCCC2)cc1OC`, for which the inhibition is inactive: -0.65%.
`O=C(NCC1(N2CCOCC2)CCCCC1)c1cc(F)c(F)cc1Cl`: the inhibition was inactive: -7.51%.
For `O=C(NCC1(N2CCCCC2)CCCCC1)c1cccc(C(F)(F)F)c1` the value was inactive: -1.65%; for `CN1CCN(CCOC(=O)C(O)(c2ccccc2)c2ccccc2)CC1`, inactive: 1.29%.
Turning to `COc1ccc(NC2CCN(C(=O)OC(C)(C)C)CC2)cc1`, the inhibition is inactive: -10.3%.
For `CC(C)c1ccc(C(=O)NCC2(N3CCOCC3)CCCCC2)cc1`, the inhibition was inactive: 2.22%.
With `COc1cc(C(=O)NCC2(N3CCCCC3)CCCCC2)ccc1OC(F)F`, the inhibition is inactive: 13.4%.
On to `O=C(NCC1(N2CCOCC2)CCCCC1)c1cc(=O)[nH]c2ccccc12`, for which the inhibition is inactive: -0.68%.
In the case of `O=C(NCC1(N2CCCCC2)CCCCC1)c1ccc(OC(F)F)cc1`, the inhibition is inactive: -14.7%.
With `CSc1ccc(C(=O)NCC2(N3CCOCC3)CCCCC2)cc1`, the inhibition was inactive: -10.1%.
`O=C(NCC1(N2CCCCC2)CCCCC1)c1cccc([N+](=O)[O-])c1`: the inhibition was inactive: 2.37%.
For `CCN1CCC(Nc2ccc(Cl)cc2)CC1` the value was inactive: -3.88%; for `N#CC1(Nc2ccccc2)CCN(CCc2ccccc2)CC1`, inactive: -3.43%; for `c1ccc(CN2CCC(Nc3ccccc3)CC2)cc1`, inactive: -4.8%.
With `CCCN1CCC(Nc2cc(OC)cc(OC)c2)CC1`, the inhibition was inactive: 26%.
For `Cc1cc(N(CCCl)CCCl)ccc1C=O` the value was inactive: 3.09%; for `CN(C)C1(CNC(=O)c2cccc(C#N)c2)CCCCC1`, inactive: -2.61%.
For the compound `CC(C)(C)OC(=O)N1CCC(N(C(=O)c2ccccc2)c2ccc(Cl)cc2)CC1`, the inhibition was inactive: -0.68%.
With `N#Cc1ccc(C(=O)NCC2(N3CCCCC3)CCCCC2)cc1`, the inhibition was inactive: -1.48%.
Turning to `N/C(=N\O)c1c(N)no[n+]1[O-]`, the inhibition was inactive: -11.7%.
In the case of `CCOC(=O)N1CCC(Nc2ccc(C)cc2)CC1`, the inhibition was inactive: -6.48%.
For `O=C(OC1CN2CCC1CC2)C1c2ccccc2C=Cc2ccccc21` (centres undefined) the value was inactive: 2.94%; for `O=C(NCC1(N2CCOCC2)CCCCC1)c1cc(Br)ccc1Cl`, inactive: -7.08%.
Consider `COc1cc(C(=O)NCC2(N3CCOCC3)CCCCC2)cc(OC)c1C`, for which the inhibition is inactive: 1.1%.
For the compound `COc1ccc(C(=O)NCC2(N3CCOCC3)CCCCC2)cc1OC`, the inhibition is inactive: -7.12%.
Then `CCC(CO)(C(=O)OC1CN2CCC1CC2)c1ccccc1` (centres undefined), with inactive: 0%; and `COc1cc(OC)cc(C(=O)NCC2(N3CCOCC3)CCCCC2)c1`, with inactive: -3.9%; and `COc1cccc(C(=O)N(c2cc(C)cc(C)c2)C2CCN(C(=O)OC(C)(C)C)CC2)c1`, with inactive: -4.57%.
Regarding `CCOc1ncccc1C(=O)NCC1(N2CCOCC2)CCCCC1`, the inhibition is inactive: -6.94%.
Then `CN1CCC(Nc2ccc(F)c(Cl)c2)CC1`, with inactive: 0.79%; and `CCCOc1ccc(C(=O)NCC2(N(C)C)CCCCC2)cc1`, with inactive: -1.98%.
Then `CC(C)(C)OC(=O)N1CCC(Nc2ccccc2)CC1`, with inactive: -2.34%.
`O=C(O)C1(Nc2ccccc2)CCN(Cc2ccccc2)CC1`: the inhibition is inactive: 0%.
Turning to `Cc1ccccc1NC1(C#N)CCN(Cc2ccccc2)CC1`, the inhibition is inactive: 0.81%.
For `CCN1CCC(Nc2cccc(F)c2)CC1`, the inhibition was inactive: 0.74%.
For `O=C(NCC1(N2CCCCC2)CCCCC1)c1ccco1`, the inhibition is inactive: -1.1%.
Regarding `CN(C)c1ccc(C(=O)NCC2(N3CCCCC3)CCCCC2)cc1`, the inhibition is inactive: 0.76%.
On to `Cn1c(=O)[nH]cc(N(CCCl)CCCl)c1=O`, for which the inhibition was inactive: 3.11%.
Take `COc1cc(OC)cc(C(=O)NCC2(N3CCCCC3)CCCCC2)c1`: the inhibition is inactive: -5.84%.
Regarding `CC(=O)N(c1ccccc1)C1CCNCC1`, the inhibition is inactive: -5.05%.
Then `Cc1ccc(NC2(C#N)CCN(Cc3ccccc3)CC2)cc1`, with inactive: 9.55%; and `Cc1ccc(C(=O)NCC2(N3CCCCC3)CCCCC2)o1`, with inactive: -6.48%; and `Fc1ccccc1NC1CCN(Cc2ccccc2)CC1`, with inactive: -4.83%.
